Reference: patent US11414378B2, “Anti-fungals compounds targeting the synthesis of fungal sphingolipids” (THE RESEARCH FOUNDATION FOR THE STATE UNIVERSITY OF NEW YORK, priority 2017, dated 2022)

How the values were obtained:
[1] = system: A549; experiment: A549 toxicity; type: cell-based; settings: for SI-A549/MIC: Tables 1-3; for SIMIC: selectivity index A549/MIC, Example 2 table
[2] = system: HepG2; experiment: HepG2 toxicity; type: cell-based; settings: Tables 1-3

| Structure (SMILES) | SI-A549/MIC [1] | SI-HepG2/MIC [2] | SIMIC [1] |
| --- | --- | --- | --- |
| O=C(N/N=C/c1cc(Br)ccc1O)c1cc(Br)ccc1Br | 64 µg/mL | 128 µg/mL |  |
| O=C(N/N=C/c1cc(Br)ccc1O)c1cc(Br)cc(Br)c1O [Compound 17] |  |  | 32 |
| O=C(N/N=C/c1ccc(Br)cc1O)c1cc(Br)ccc1Br | 266.6 µg/mL | 133.3 µg/mL |  |
| Cc1ccccc1C(=O)N/N=C/c1cc(Br)ccc1O [Compound 1] |  |  | 32 |
| Cc1ccc(O)c(/C=N/NC(=O)c2cc(Br)cc(Br)c2O)c1 [drawing 66] | 16 µg/mL | 32 µg/mL |  |
| O=C(N/N=C/c1ccc(Br)cc1O)c1cccc(F)c1F | 32 µg/mL | 32 µg/mL |  |
| Cc1ccc(O)c(/C=N/NC(=O)c2cc(Br)ccc2O)c1 | 64 µg/mL | 64 µg/mL |  |
| O=C(N/N=C/c1cc(Cl)ccc1O)c1ccc(Br)cc1Br | 256 µg/mL | 256 µg/mL |  |
| Cc1ccc(O)c(/C=N/NC(=O)c2cc(Br)ccc2Br)c1 | 32 µg/mL | 32 µg/mL |  |
| O=C(N/N=C/c1ccc(Br)cc1O)c1ccc(Br)cc1Br | 1066 µg/mL | 2133.3 µg/mL |  |
| O=C(N/N=C/c1cc(Cl)cc(Cl)c1O)c1cc(Br)ccc1Br | 64 µg/mL | 64 µg/mL |  |
| O=C(N/N=C/c1c(O)ccc2ccccc12)c1cc(Br)ccc1Br | 128 µg/mL | 64 µg/mL |  |
| O=C(N/N=C/c1cc(Br)ccc1O)c1ccc(Br)cc1Br | 533.3 µg/mL | 491.66 µg/mL |  |
| O=C(N/N=C/c1cc(Cl)cc(Cl)c1O)c1ccc(Br)cc1Br | 128 µg/mL | 64 µg/mL |  |
| O=C(N/N=C/c1cc(Cl)ccc1O)c1cccc(F)c1F | 72 µg/mL | 32 µg/mL |  |
| O=C(N/N=C/c1ccc(Br)cc1O)c1cccc(Br)c1 | 128 µg/mL | 18 µg/mL |  |
| O=C(N/N=C/c1c(O)ccc2ccccc12)c1ccc(Br)cc1Br | 133.3 µg/mL | 533.3 µg/mL |  |
| O=C(N/N=C/c1ccc(Br)cc1O)c1ccc(Br)cc1 | 266.6 µg/mL | 533.3 µg/mL |  |
| O=C(N/N=C/c1ccc(Br)cc1O)c1cc(Br)cc(Br)c1O [drawing 79] | 533.3 µg/mL | 533.3 µg/mL |  |
| O=C(N/N=C/c1cc(Cl)ccc1O)c1cc(Br)ccc1Br | 236 µg/mL |  |  |
| O=C(N/N=C/c1cc(Br)ccc1O)c1cccc(Br)c1 [Compound 2] |  |  | 64 |
| O=C(N/N=C/c1cc(Br)cc(Br)c1O)c1ccc(Br)cc1 [Compound 13] |  |  | 4266.6 |
| O=C(N/N=C/c1cc(Br)cc(Br)c1O)c1cnc2ccccc2c1 [drawing 62] | 128 µg/mL | 128 µg/mL |  |
| Cc1ccc(O)c(/C=N/NC(=O)c2ccc(Br)cc2Br)c1 | 32 µg/mL | 16 µg/mL |  |
